Holding throughout (details): remark: other sources report otherwise
The target of assay [1] is T1, Bt-SARS-CoV-2 Spike Protein (RBD)([…]).hFc (SARS-CoV-2).
Assay [2] concerns the target T2, Bt-SARS-CoV-2 Spike Protein (RBD)([…]).mFc (SARS-CoV-2).
Assay [3] concerns the target SARS-CoV-2 Spike Protein (RBD)([…]).mmH (SARS-CoV-2). Put plainly: Luminex bead assay, supernatant on antigen microspheres.
For assay [4], the target named is T3, SARS-COV-2-S RBD extracellular domain expressed with a C-terminal myc-myc-hexahistidine (SARS-COV-2 RBD-MMH) (SARS-CoV-2).
The target in assay [5] is T3, SARS-COV-2-S RBD extracellular domain …. The source holds these as a separate data set.
For assay [6], the target named is SARS-CoV-2 Spike Protein (RBD)([…]).mmH (SARS-CoV-2). As to the kind of experiment: Luminex bead assay, supernatant on antigen microspheres. The source holds these as a separate data set.
The target is the same in assay [7].
Assay [8] addresses T1, Bt-SARS-CoV-2 Spike Protein …. Put plainly: Luminex bead assay, antibody supernatant, biotinylated antigen on microspheres.
The target in assay [9] is T2, Bt-SARS-CoV-2 Spike Protein …. Described as above.

The text below walks through data of patent publication US20220356230A1.

Several values for one entry are separate records, joined by “and”; a condition that tells them apart may be missing. Equal values may be shown once. Read-outs that look alike come from different tables or passages of the source.

B1: mAb10955 (antibody)
heavy: EVQLVESGGGLVQPGGSLRVSCAASGFTVSRNYMSWVRQAPGKGLEWVSVIYSGGSTFYADSVKGRFTISRDNSKNTLYLQMNSLRAEDTAIYYCARYIPRFDPWGQGTLVTVSSASTKGPSVFPLAPSSKSTSGGTAALGCLVKDYFPEPVTVSWNSGALTSGVHTFPAVLQSSGLYSLSSVVTVPSSSLGTQTYICNVNHKPSNTKVDKKV[human IgG1 Fc left out here]
light: DIQMTQSPSSLSASVGDRVTITCQASQDISNYLNWFQQKPGRAPKLLIYDASNLETGVPSRFSGSGSGTDFTFTISSLQPEDIATYYCQQYDNLPITFGQGTRLEIKRTVAAPSVFIFPPSDEQLKSGTASVVCLLNNFYPREAKVQWKVDNALQSGNSQESVTEQDSKDSTYSLSSTLTLSKADYEKHKVYACEVTHQGLSSPVTKSFNRGEC
One may read the t½ as the time in which the quantity being followed falls by half. Regarding B1, the Binding signal (MFI) in [1] is 24700 MFI; in [2], 16800 MFI; in assay [3], 28500 MFI; in assay [6], 29600 MFI. The t½ in [4] stood at 0.8 min; in [5] it was 0.6 min.

B2: mAb10966 (antibody)
heavy: EVQLVESGGGLVQPGGSLRLSCAASGLTVSSNYMSWVRQAPGKGLEWVSVIYSGGSTFYADSVKGRFTISRDNSKNTLYLQMNSLRPEDTAVYYCAREGRIAATGYGMDVWGQGTTVTVSSASTKGPSVFPLAPSSKSTSGGTAALGCLVKDYFPEPVTVSWNSGALTSGVHTFPAVLQSSGLYSLSSVVTVPSSSLGTQTYICNVNHKPSNTKVDKKV[human IgG1 Fc left out here]
light: DIQMTQSPSSLSASVGDRVTITCQASQDISNYLNWYQQKPGKAPKLLIYDASNLGTGVPSRFSGSRSGTDFTFTISSLQPEDIATYYCHQYDNLPQTFGPGTKVDIKRTVAAPSVFIFPPSDEQLKSGTASVVCLLNNFYPREAKVQWKVDNALQSGNSQESVTEQDSKDSTYSLSSTLTLSKADYEKHKVYACEVTHQGLSSPVTKSFNRGEC
Take B2: the Binding signal (MFI) is 25100 MFI in assay [1], 17900 MFI in [2], 27400 MFI in assay [3] and 30900 MFI in assay [6].

B3: mAb10964 (antibody)
heavy: QVQLQESGPGLVKPSETLSLTCTVSGGSINNYYWIWIRQPPGKGLEWIGYIYHSGSTNYNPSLKSRVTISVDTSKNQFSLKVSSVTAADTAVYYCANMVRGVYEDDYWGQGTLVTVSSASTKGPSVFPLAPSSKSTSGGTAALGCLVKDYFPEPVTVSWNSGALTSGVHTFPAVLQSSGLYSLSSVVTVPSSSLGTQTYICNVNHKPSNTKVDKKV[human IgG1 Fc left out here]
light: DIQMTQSPSSLSASVGDRVTITCRASQSISNYLNWYQQKPGKAPKLLIFAASSLRSGVPSRFSGSGSGTDFTLTISSLHPEDFATYYCQQNYNTPLTFGPGTKVDIKRTVAAPSVFIFPPSDEQLKSGTASVVCLLNNFYPREAKVQWKVDNALQSGNSQESVTEQDSKDSTYSLSSTLTLSKADYEKHKVYACEVTHQGLSSPVTKSFNRGEC
On to B3, for which the Binding signal (MFI) in assay [1] turned out to be 27700 MFI; in assay [2], 19200 MFI; in assay [3], 28900 MFI; in assay [6] it was 31800 MFI.

B4: mAb10971 (antibody)
heavy: EVQLVESGGGLIQPGGSLRLSCAASGVTVSSNYMSWVRQAPGKGLEWVSVIYSGGSTFYSDSVKGRFSISRDNSKNTLYLQMNSLRAEDTAVYYCARDLYYYGMDVWGQGTTVTVSSASTKGPSVFPLAPSSKSTSGGTAALGCLVKDYFPEPVTVSWNSGALTSGVHTFPAVLQSSGLYSLSSVVTVPSSSLGTQTYICNVNHKPSNTKVDKKV[human IgG1 Fc left out here]
light: DIQLTQSPSFLSASVGDRVTITCRASQGISTYLAWYQQKPGKAPKLLIYAASTLQSGVPSRFSGSGSGTEFTLTISSLQPEDFATYYCQQLDSYPGLTFGGGTKVEIKRTVAAPSVFIFPPSDEQLKSGTASVVCLLNNFYPREAKVQWKVDNALQSGNSQESVTEQDSKDSTYSLSSTLTLSKADYEKHKVYACEVTHQGLSSPVTKSFNRGEC
As for B4, the Binding signal (MFI) in assay [1] was found to be 24600 MFI; in assay [2], 16700 MFI; in assay [3], 28800 MFI; in [6], 29400 MFI. Also, the t½ in [4] was 12.2 min and 9.1 min; in assay [5] it was 12.2 min and 6.8 min.

B5: mAb10989 (antibody)
heavy: QVQLVQSGAEVKKPGASVKVSCKASGYIFTGYYMHWVRQAPGQGLEWMGWINPNSGGANYAQKFQGRVTLTRDTSITTVYMELSRLRFDDTAVYYCARGSRYDWNQNNWFDPWGQGTLVTVSSASTKGPSVFPLAPSSKSTSGGTAALGCLVKDYFPEPVTVSWNSGALTSGVHTFPAVLQSSGLYSLSSVVTVPSSSLGTQTYICNVNHKPSNTKVDKKV[human IgG1 Fc left out here]
light: QSALTQPASVSGSPGQSITISCTGTSSDVGTYNYVSWYQQHPGKAPKLMIFDVSNRPSGVSDRFSGSKSGNTASLTISGLQAEDEADYYCSSFTTSSTVVFGGGTKLTVLGQPKAAPSVTLFPPSSEELQANKATLVCLISDFYPGAVTVAWKADSSPVKAGVETTTPSKQSNNKYAASSYLSLTPEQWKSHRSYSCQVTHEGSTVEKTVAPTECS
On to B5, for which the Binding signal (MFI) is 16100 MFI in assay [1] and 11200 MFI in [2].

B6: mAb11010 (antibody)
heavy: QVQLVESGGGVVQPGRSLRLSCAASGFTFSSYGMHWVRQAPGKGLEWVAVISYDGSYKYYADSVKGRFTISRDNSKNTLYLQMNSLRAEDTAVYYCAIDGGTVTTIFDYWGQGTLVTVSSASTKGPSVFPLAPSSKSTSGGTAALGCLVKDYFPEPVTVSWNSGALTSGVHTFPAVLQSSGLYSLSSVVTVPSSSLGTQTYICNVNHKPSNTKVDKKV[human IgG1 Fc left out here]
light: [about 100 residues left out here][about 120 residues left out here]
As to B6, the t½ in assay [4] was 3 min and 1.5 min; in assay [5], 3 min and 1.6 min.

B7: mAb10965 (antibody)
heavy: EVQLVESGGGLIQPGGSLRLSCAASVFTVSYNYMSWVRQAPGKGLEWVSVIYSGGSTYYADSVKGRFTISRDNSKNTLYLQMNSLRAEDTAVYYCARALPGWGGSFEYFDYWGQGTLVTVSSASTKGPSVFPLAPSSKSTSGGTAALGCLVKDYFPEPVTVSWNSGALTSGVHTFPAVLQSSGLYSLSSVVTVPSSSLGTQTYICNVNHKPSNTKVDKKV[human IgG1 Fc left out here]
light: [about 100 residues left out here][about 100 residues left out here]
Consider B7, for which the Binding signal (MFI) in assay [3] came out at 26900 MFI; in assay [6], 30800 MFI.

B8: mAb10920 (antibody)
heavy: QVQLVESGGGVVQPGRSLRLSCAASGFTFSYYGMHWVRQAPGKGLEWVAVIWYDGSNKFYADSVKGRFTISRDNSKNTLYLQMNSLRAEDTAVYYCAAARPGYYYGMDVWGQGTTVTVSSASTKGPSVFPLAPSSKSTSGGTAALGCLVKDYFPEPVTVSWNSGALTSGVHTFPAVLQSSGLYSLSSVVTVPSSSLGTQTYICNVNHKPSNTKVDKKV[human IgG1 Fc left out here]
light: DIQMTQSPSSLSASVGDRVTITCRASQGISNYLAWFQQKPGKAPNSLIYAASSLQRGVPSKFSGSGSGTDFTLTISSLQPEDFATYYCQQYNSYPRTFGQGTKVEIKRTVAAPSVFIFPPSDEQLKSGTASVVCLLNNFYPREAKVQWKVDNALQSGNSQESVTEQDSKDSTYSLSSTLTLSKADYEKHKVYACEVTHQGLSSPVTKSFNRGEC
B8: the Binding signal (MFI) in [7] is 34800 MFI and 34400 MFI; in assay [8], 31700 MFI; in [9] it was 20300 MFI.

B9: mAb10985 (antibody)
heavy: EVQLVESGGGLVQPGRSLRLSCAASGFTFDDYAMHWVRQAPGKGLEWVSGISWNRGSIGYADSVKGRFTISRDNAKNSLYLQMSSLRAEDTALYYCAKDGERWDSVVVPSARNGMDVWGQGTTVTVSSASTKGPSVFPLAPSSKSTSGGTAALGCLVKDYFPEPVTVSWNSGALTSGVHTFPAVLQSSGLYSLSSVVTVPSSSLGTQTYICNVNHKPSNTKVDKKV[human IgG1 Fc left out here]
light: QSVLTQPPSVSGAPGQRVTISCTGSSSNIGAGYDVHWYQQLPGTAPKLLIYGNSNRPSGVPDRFSGSKSGTSASLAITGLQAEDEADYYCQSYDSSLSGSYVFGTGTKVTVLGQPKAAPSVTLFPPSSEELQANKATLVCLISDFYPGAVTVAWKADSSPVKAGVETTTPSKQSNNKYAASSYLSLTPEQWKSHRSYSCQVTHEGSTVEKTVAPTECS
B9: the Binding signal (MFI) was 24800 MFI in [1], 15500 MFI in [2], 27900 MFI in assay [3] and 30200 MFI in assay [6].

B10: mAb10954 (antibody)
heavy: EVQLVESGGGLVQPGGSLRLSCAASGITVSSNYMSWVRQAPGKGLEWVSLIYSGGSTYYADSVKGRFTISRDNSKNTLYLQMNSLRVEDTAVYYCARDHGMAAAGYNYWGQGTLVTVSSASTKGPSVFPLAPSSKSTSGGTAALGCLVKDYFPEPVTVSWNSGALTSGVHTFPAVLQSSGLYSLSSVVTVPSSSLGTQTYICNVNHKPSNTKVDKKV[human IgG1 Fc left out here]
light: DIQMTQSPSSLSASVGDRVTITCQASQDINKYLNWYQQKPGKAPKLLIYDASNLETGVPSRFSGSGSGTDFTFTINSLQPEDFATYFCQQYDNLPPAFGQGTKVEIKRTVAAPSVFIFPPSDEQLKSGTASVVCLLNNFYPREAKVQWKVDNALQSGNSQESVTEQDSKDSTYSLSSTLTLSKADYEKHKVYACEVTHQGLSSPVTKSFNRGEC
Regarding B10, the Binding signal (MFI) was 28300 MFI in assay [3] and 30400 MFI in assay [6].
